Measured values from several laboratories, pooled; numbers as filed in NIAID ChemDB.

Common to all: host cell toxicity; endpoint: CC50

CCn: concentration that lowers growth or viability of the cells by n%. Lines come from different laboratories, so protocols vary.

CCN(CC)CCN(C)Cc1coc(-c2ccccc2)c1Cl.Cl.Cl ; cell line: VERO ; value: 2 µg/mL
COc1cc([C@@H]2c3cc4c(cc3[C@H](OC(C)=O)[C@@H]3COC(=O)[C@H]23)OCO4)cc2c1OCCO2 ; cell line: P-388 ; value: 2.2 µM
O=C1c2c(O)cc(O)cc2O[C@@H](c2ccc(O)cc2)[C@@H]1c1c(O)cc(O)c2c(=O)cc(-c3ccc(O)c(O)c3)oc12 ; method: sulforhodamine / absorbance ; cell line: HT-29 ; value: >50 µM
CC(=O)O[C@H]1C(=O)[C@]2(C)[C@@H](OC(C)=O)C[C@H]3OC[C@@]3(OC(C)=O)[C@H]2[C@H](OC(=O)c2ccccc2)[C@]2(O)C[C@H](OC(=O)[C@H](OC(C)=O)[C@@H](NC(=O)c3ccccc3)c3ccccc3)C(C)=C1C2(C)C ; cell line: VERO ; value: 4.6 µg/mL
OC[C@H]1O[C@@H](n2cnc3c(NC4CCCC4)nc(Cl)cc32)[C@H](O)[C@@H]1O ; method: MTT ; cell line: Sheep chondrocytes G81092 ; value: 205 µM
O=C(Nc1ccc(C2=NCC(O)CN2)cc1)c1ccc(C(=O)Nc2ccc(C3=NCC(O)CN3)cc2)cc1 ; cell line: VERO ; value: >12.5 µg/mL
CCOc1cc(C)nc(NC(=S)NC(=O)c2ccc(-c3ccccc3Cl)o2)n1 ; method: MTS ; cell line: MDCK ; value: >300 µM
OC(c1cc(C23CC4CC(CC(C4)C2)C3)nc2c(Cl)cc(Cl)cc12)C1CCCCN1 ; cell line: VERO ; value: 2.1 µg/mL
O=C(NC1CCCCC1)NC1N=C(c2ccccc2)c2ccccc2NC1=O ; cell line: HEP-2 ; value: 1.5 µM
COc1cc(OC)nc(NC(=S)NC(=O)COc2ccc(Cl)cc2Cl)n1 ; method: MTS ; cell line: MDCK ; value: >300 µM
COc1ccc(C2N(NC(=O)c3ccncc3)C(=O)CS2(=O)=O)cc1F ; cell line: VERO ; value: >10 µg/mL
COC(=O)NC(=S)NC(=O)NC(C)(C)C ; method: MTS ; cell line: MDCK ; value: >300 µM
Cc1ccc(NC(=S)NC(=O)C(C)Oc2ccccc2)cc1Cl ; cell line: VERO ; value: >10 µg/mL
CC(C)=CC[C@H]1C[C@@]2(C[C@H]3CCC(C)(C)C=C3C)C(=O)[C@](C(=O)c3ccccc3)(C(=O)C3=C2OC(C)(C)C=C3)C1(C)C ; method: XTT / absorbance ; cell line: 1A2 ; value: >220 µM
CC[N+](C)(CC)CCNc1cc2c(c3c(=O)c4ccccc4sc13)CCCC2 ; cell line: VERO ; value: 46.02 µg/mL
COC(=O)[C@@H]1[C@H](c2cc(OC)c3nccnc3c2)c2cc3c(cc2C2=NOC[C@@H]21)OCO3 ; cell line: P-388 ; value: 2.8 µM
Nc1ccn(C[C@@H](CO)OCP(=O)(O)O)c(=O)n1 ; cell line: U373-MG ; value: 112 µg/mL
C[N+](C)=c1ccc2nc3c(cc(Nc4cccc(Nc5cc6oc7cc(=[N+](C)C)ccc-7nc6c6ccccc56)n4)c4ccccc43)oc-2c1 ; cell line: VERO ; value: 4.13 µg/mL
COc1cc(OC)nc(NC(=S)NC(=O)c2cccnc2)n1 ; method: MTS ; cell line: MDCK ; value: >300 µM
COC(=O)[C@H]1C2CON=C2c2cc3c(cc2[C@H]1c1cc(OC)c(OC)c(OC)c1)OCO3 ; cell line: MEL-28 ; value: 5.7 µM
Cc1cc(=O)[nH]c(NC(=S)NC(=O)c2ccc(-c3ccccc3Cl)o2)n1 ; method: MTS ; cell line: MDCK ; value: >300 µM
OC[C@H]1O[C@@H](n2cnc3c(NC4CCCCCC4)ncnc32)[C@H](O)[C@@H]1O ; method: MTT ; cell line: Sheep chondrocytes G81092 ; value: 126 µM
Cn1cc(NC(=O)c2cc(NC(=O)CN=C(N)N)cn2C)cc1C(=O)NCCC(=N)N ; cell line: VERO ; value: 28.29 µg/mL
OC[C@@H]1CC[C@H](n2cnc3c(NC4CC4)nc(Cl)nc32)O1 ; method: MTT ; cell line: Sheep chondrocytes G81092 ; value: 180 µM
Nc1nc(N)c2ncn(CCOCP(=O)(O)O)c2n1 ; method: MTT ; cell line: CBMC ; value: 34 µM
C/C(=N\OCc1ccc(F)cc1)c1c(C)cc(=O)n(O)c1O ; setting: 3 d ; method: MTS ; cell line: PHH ; value: >100 µM
O=C(NC1N=C(c2ccccc2)c2ccccc2NC1=O)C(=O)c1cccs1 ; cell line: HEP-2 ; value: 9.5 µM
OC[C@H]1O[C@@H](n2cnc3c(NC4CC4)ncnc32)[C@H](O)[C@@H]1O ; cell line: MDBK ; value: >400 µM
CC(=O)Nc1c2sscc-2n(C)c1=O ; cell line: VERO ; value: 0.4 µg/mL
Cc1cc(=O)[nH]c(NC(=S)NC(=O)c2ccc(Cl)nc2)n1 ; method: MTS ; cell line: MDCK ; value: >300 µM
O=C(N[C@H]1N=C(c2ccccc2)c2ccccc2NC1=O)c1cc(F)c(F)cc1F ; cell line: HEP-2 ; value: 5.8 µM
C[C@H]1[C@H](O)C(=O)CC2[C@]3(C)CC[C@@]4(C)C5CC(C)(C)CC[C@]5(C)CC[C@]4(C)C3CC[C@@]21C ; method: sulforhodamine / absorbance ; cell line: ASK (Atlantic salmon kidney) ; value: >50 µM
COc1cc([C@@H]2c3cc4c(cc3[C@H](OC(C)=O)[C@@H]3COC(=O)[C@@H]23)OCO4)cc2c1OC1(N3CCCC3)CCCCC1O2 ; cell line: HT-29 ; value: 2.02 µM
COc1cc(-c2ccccc2)c(OC)c(OC)c1O ; method: sulforhodamine / absorbance ; cell line: MCF-7 ; value: >50 µM
COc1cc(OC)n2sc(=NC(=O)c3cccnc3)nc2n1 ; method: MTS ; cell line: MDCK ; value: >300 µM
Nc1nc(=O)n([C@@H]2CS[C@H](CO)O2)cc1F ; cell line: 2.2.15 ; value: >200 µM
OC[C@@H]1CC[C@H](n2cnc3c(NC4CCCCCC4)ncnc32)O1 ; cell line: Sheep chondrocytes G81092 ; value: 308 µM
COc1ccccc1C(=O)NC1N=C(c2cccc(C(F)(F)F)c2)c2ccccc2NC1=O ; cell line: HEP-2 ; value: 5 µM
Nc1ncnc2c1ncn2[C@@H]1O[C@H](CO)C[C@@H]1O ; cell line: H4 ; value: 40 µg/mL
CCCN(CCC)CCCOC(=O)c1ccc2oc3ccc(C(=O)OCCCN(CCC)CCC)cc3c2c1 ; cell line: VERO ; value: 5.35 µg/mL
O=C(O)CP(=O)(O)O ; method: MTT ; cell line: CBMC ; value: 325 µM
CN1CCN(CCCN2c3ccccc3Sc3ccc(C(F)(F)F)cc32)CC1 ; cell line: VERO ; value: 6.5 µg/mL
COc1cccc(C2(c3ccccc3)NC(NC(=O)c3ccc([N+](=O)[O-])cc3)C(=O)Nc3ccccc32)c1 ; cell line: HEP-2 ; value: 5 µM
Nc1nc(=O)n([C@@H]2CC[C@H](CO)O2)cc1F ; cell line: IM9 ; value: >100 µM
Cc1ccccc1-n1c(SCC(=O)NC(=O)Nc2cccc(Cl)c2)nc2c(Br)cc(Br)cc2c1=O ; cell line: VERO ; value: >10 µg/mL
O=C1c2c(O)cc(O)cc2O[C@H](c2ccc(O)cc2)[C@H]1c1c(O)cc(O)c2c(=O)cc(-c3ccc(O)c(O)c3)oc12 ; method: sulforhodamine / absorbance ; cell line: ASK (Atlantic salmon kidney) ; value: >50 µM
CCOc1ccccc1-c1nc2c(s1)C(=O)c1ccccc1C2=O ; cell line: VERO ; value: 6 µg/mL
Nc1ncnc2c1ncn2[C@@H]1O[C@H](CO)[C@@H](O)[C@@H]1O ; method: MTT ; cell line: HSB-2 ; value: 3.2 µM
CCN(CC)CCNc1ccc2nc(C)n3c4ccc(OC)cc4c(=O)c1c23.Cl ; cell line: VERO ; value: 0.29 µg/mL
Nc1ncnc2c1ncn2C[C@H]1COP(=O)(O)CO1 ; method: MTT ; cell line: HSB-2 ; value: 242 µM
O=C(Nc1ccc(Nc2ccncc2)cc1)c1ccc(Nc2ccnc3ccc([N+](=O)[O-])cc23)cc1[N+](=O)[O-] ; cell line: VERO ; value: >10 µg/mL
OC[C@H]1O[C@@H](n2cnc3c(NC4CC4)ncnc32)C[C@@H]1O ; cell line: Sheep chondrocytes G81092 ; value: 312 µM
N=C1/C(=C/c2ccccc2O)C(=O)NN1C(=O)c1ccncc1 ; cell line: VERO ; value: >62.5 µg/mL
C/C(=C\C=C\C(C)[C@H]1CC[C@@]2(C)[C@@H]3CC[C@H]4C(C)(C)C(=O)CC[C@]4(C)C3=CC[C@]12C)C(=O)O ; method: sulforhodamine / absorbance ; cell line: HT-29 ; value: >50 µM
Cc1cc(O)c2c(c1)C(=O)C(c1c(C)cc3c(c1O)C(=O)C1OC1C3=O)=CC2=O ; cell line: VERO ; value: <0.41 µg/mL
COc1cc([C@@H]2c3cc4c(cc3[C@H](OC(C)=O)[C@@H]3COC(=O)[C@@H]23)OCO4)cc(OC)c1OC ; cell line: HT-29 ; value: 0.55 µM
OC[C@H]1O[C@@H](n2cnc3c(NC4CCCCCC4)cc(Cl)nc32)C[C@@H]1O ; method: MTT ; cell line: Sheep chondrocytes G81092 ; value: 230 µM
CO[C@H]1/C=C/O[C@@]2(C)Oc3c(C)c(O)c4c(O)c(c5[nH]c(-c6ccccc6)nc5c4c3C2=O)NC(=O)/C(C)=C\C=C\[C@H](C)[C@H](O)[C@@H](C)[C@@H](O)[C@@H](C)[C@H](OC(C)=O)[C@@H]1C ; cell line: VERO ; value: 1.14 µg/mL

Repeating the final 4 entries:

{"smiles": "Cc1cc(O)c2c(c1)C(=O)C(c1c(C)cc3c(c1O)C(=O)C1OC1C3=O)=CC2=O", "cell line": "VERO", "value": "<0.41 µg/mL"}
{"smiles": "COc1cc([C@@H]2c3cc4c(cc3[C@H](OC(C)=O)[C@@H]3COC(=O)[C@@H]23)OCO4)cc(OC)c1OC", "cell line": "HT-29", "value": "0.55 µM"}
{"smiles": "OC[C@H]1O[C@@H](n2cnc3c(NC4CCCCCC4)cc(Cl)nc32)C[C@@H]1O", "method": "MTT", "cell line": "Sheep chondrocytes G81092", "value": "230 µM"}
{"smiles": "CO[C@H]1/C=C/O[C@@]2(C)Oc3c(C)c(O)c4c(O)c(c5[nH]c(-c6ccccc6)nc5c4c3C2=O)NC(=O)/C(C)=C\\C=C\\[C@H](C)[C@H](O)[C@@H](C)[C@@H](O)[C@@H](C)[C@H](OC(C)=O)[C@@H]1C", "cell line": "VERO", "value": "1.14 µg/mL"}